In ChEMBL document CHEMBL1955767, “Synthesis and biological evaluation of piperidine-substituted triazine derivatives as HIV-1 non-nucleoside reverse transcriptase inhibitors” (Eur J Med Chem, 2012):

Biological target: Human immunodeficiency virus type 1 reverse transcriptase (Human immunodeficiency virus 1, UniProt Q72547)
Test: Inhibition of HIV1 reverse transcriptase assessed as incorporation of biotin-dUTP into poly(rA)-oligo(dT)
Outline: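 ELISA-format RT kit with a poly(rA)-oligo(dT) homopolymer template/primer bound to the plate. Wild-type HIV-1 RT activity measured as biotin-dUTP incorporation into the template.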

`Cc1cc(C#N)cc(C)c1Oc1nc(Nc2ccc(C#N)cc2)nc(N)c1Br` [ETRAVIRINE] showed an IC50 of 550 nM.
